# Share of PSTVd loop 6 variants by leaf site

The measurements come from Wu et al. 2024 (doi:10.1371/journal.ppat.1012142).

Region: loop 6 of PSTVd (intermediate strain), upper and lower strand joined, each 5' to 3', the first 5 letters being the upper strand, closing pairs included. Wild type: UGACCGCGAG. Varied positions (N): UNNNCGNNNG.

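Three N. benthamiana plants were inoculated with the whole mutant pool. Samples came from the inoculated region at 5 days, the leaf margin at 10 and upper systemic leaves at 12.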

Numbers give reads per thousand; 0 = not seen among the reads, higher = more abundant. Each site shows the three plants. "Pool" is the share in the plasmid pool used as inoculum, on the same scale. The inoculated region was read from the minus strand, the other sites from the plus strand.

sequence,pool,inoculated region,leaf margin,systemic leaves
UUUCCGAACG,0.222,0.122 / 0.0898 / 0.0553,0 / 0 / 0.0928,0 / 0 / 0
UUUCCGAAGG,0.105,0.156 / 0.108 / 0.111,0 / 0 / 0,0 / 0 / 0
UUUCCGAAUG,0.405,0.0869 / 0.144 / 0.129,0 / 0 / 0.0928,0 / 0 / 0
UUUCCGACAG,0.196,0.0869 / 0.0719 / 0.111,0 / 0 / 0.116,0 / 0 / 0
UUUCCGACCG,0.301,0.191 / 0.0898 / 0.0553,0.0276 / 0 / 0,0 / 0 / 0
UUUCCGACGG,0.222,0.0695 / 0.108 / 0.129,0 / 0 / 0.464,0 / 0 / 0
UUUCCGACUG,0.288,0.122 / 0.162 / 0.111,0 / 0 / 0.0232,0 / 0 / 0
UUUCCGAGAG,0.196,0.174 / 0.180 / 0.184,0 / 0 / 0.0928,0.0180 / 0 / 0
UUUCCGAGCG,0.183,0.0695 / 0.0180 / 0.129,0.0276 / 0 / 0.0696,0 / 0 / 0
UUUCCGAGGG,0.248,0.122 / 0.0539 / 0.0369,0 / 0 / 0,0 / 0 / 0
UUUCCGAGUG,0.248,0.139 / 0.126 / 0.129,0 / 0 / 0.139,0 / 0 / 0
UUUCCGAUAG,0.314,0.174 / 0.0719 / 0.0369,0 / 0 / 1.72,0 / 0 / 0
UUUCCGAUCG,0.497,0.0695 / 0.216 / 0.0922,0.0276 / 0 / 0.0464,0 / 0 / 0
UUUCCGAUGG,0.340,0.0695 / 0.108 / 0.0922,0 / 0 / 0.0232,0 / 0 / 0
UUUCCGAUUG,0.445,0.122 / 0.108 / 0.184,0 / 0.0252 / 0.0696,0 / 0 / 0.349
UUUCCGCAAG,0.170,0.452 / 0.736 / 0.553,0 / 0.0504 / 0.278,0 / 0 / 0
UUUCCGCACG,0.275,0.0521 / 0.198 / 0.129,0 / 0 / 0.0464,0 / 0 / 0
UUUCCGCAGG,0.183,0.209 / 0.0719 / 0.0738,0 / 0 / 0,0 / 0 / 0
UUUCCGCAUG,0.196,0.174 / 0.0539 / 0.0738,0.0276 / 0 / 0,0 / 0 / 0
UUUCCGCCAG,0.157,0.0695 / 0.0719 / 0.111,0 / 0 / 0.0464,0 / 0 / 0
UUUCCGCCCG,0.235,0.191 / 0.0898 / 0.166,0.0276 / 0 / 0.0696,0 / 0 / 0
UUUCCGCCGG,0.248,0.122 / 0.144 / 0.0922,0 / 0 / 0.0928,0 / 0 / 0
UUUCCGCCUG,0.183,0.104 / 0.162 / 0.0922,0 / 0 / 0.0696,0 / 0 / 0
UUUCCGCGAG,0.301,0.382 / 0.683 / 0.553,0.138 / 0.252 / 23.2,0.0539 / 0.0202 / 0.328
UUUCCGCGCG,0.196,0.122 / 0.0539 / 0.111,0 / 0 / 0.0232,0.0180 / 0.0808 / 0
UUUCCGCGGG,0.209,0.209 / 0.108 / 0.0738,0 / 0 / 0.0928,0 / 0 / 0.0205
UUUCCGCGUG,0.170,0.156 / 0.108 / 0.184,0.0276 / 0.0252 / 0.0928,0 / 0 / 0
UUUCCGCUAG,0.144,0.156 / 0.108 / 0.0738,0 / 0 / 0.0928,0 / 0 / 0
UUUCCGCUCG,0.340,0.0521 / 0 / 0.0738,0 / 0 / 0.0928,0 / 0 / 0
UUUCCGCUGG,0.222,0.0695 / 0.0719 / 0.0369,0 / 0 / 0.0464,0 / 0 / 0
UUUCCGCUUG,0.301,0.104 / 0.126 / 0.111,0 / 0 / 0.0928,0 / 0 / 0
UUUCCGGAAC,0.0131,0 / 0 / 0,0 / 0 / 0,0 / 0 / 0
UUUCCGGAAG,0.209,0.0174 / 0.108 / 0.0922,0 / 0 / 0.0464,0 / 0 / 0
UUUCCGGACG,0.222,0.174 / 0.126 / 0.0553,0 / 0 / 0.116,0 / 0 / 0
UUUCCGGAGG,0.261,0.156 / 0.126 / 0.0922,0 / 0 / 0.0696,0 / 0 / 0
UUUCCGGAUG,0.288,0.104 / 0.0898 / 0.129,0.0552 / 0 / 0.0464,0 / 0 / 0
UUUCCGGCAG,0.261,0.139 / 0.144 / 0.0922,0 / 0 / 0.0232,0 / 0 / 0
UUUCCGGCCG,0.288,0.156 / 0.126 / 0.0738,0 / 0 / 0.0232,0 / 0 / 0
UUUCCGGCGG,0.209,0.0869 / 0.144 / 0.0553,0 / 0 / 0.0232,0 / 0 / 0
UUUCCGGCUG,0.183,0.139 / 0.162 / 0.0369,0.0276 / 0 / 0.139,0 / 0 / 0
UUUCCGGGAG,0.144,0.122 / 0.198 / 0.0738,0 / 0 / 0.0696,0 / 0 / 0
UUUCCGGGCG,0.209,0.139 / 0.126 / 0.0369,0 / 0 / 0.0232,0 / 0 / 0
UUUCCGGGGG,0.131,0.104 / 0.180 / 0.0369,0.0276 / 0 / 0.0232,0 / 0 / 0
UUUCCGGGUG,0.131,0.156 / 0.126 / 0.0738,0.0276 / 0 / 0.0928,0 / 0 / 0
UUUCCGGUAG,0.353,0.226 / 0.108 / 0.0738,0 / 0 / 0.0464,0.0180 / 0 / 0
UUUCCGGUCG,0.366,0.122 / 0.108 / 0.111,0 / 0 / 0.0232,0 / 0 / 0
UUUCCGGUGG,0.235,0.139 / 0.0719 / 0.166,0.0276 / 0 / 0.0696,0 / 0 / 0
UUUCCGGUGU,0.0131,0 / 0 / 0,0 / 0 / 0,0 / 0 / 0
UUUCCGGUUG,0.327,0.122 / 0.0898 / 0.0922,0 / 0 / 0.0232,0 / 0 / 0
UUUCCGUAAG,0.0131,0.104 / 0.144 / 0.0553,0 / 0 / 0.0464,0 / 0 / 0
UUUCCGUACG,0.340,0.0348 / 0.0719 / 0.221,0 / 0 / 0.0464,0 / 0 / 0
UUUCCGUAGG,0.301,0.156 / 0.108 / 0.129,0 / 0 / 0.139,0 / 0 / 0
UUUCCGUAUG,0.327,0.174 / 0.0898 / 0.0922,0.331 / 0 / 0.0464,0 / 0 / 0
UUUCCGUCAG,0.275,0.156 / 0.108 / 0.0553,0 / 0 / 0.0696,0 / 0 / 0
UUUCCGUCCG,0.196,0.139 / 0.0719 / 0.0553,0 / 0 / 0.0464,0 / 0 / 0
UUUCCGUCGG,0.314,0.0869 / 0.0539 / 0.0553,0.0276 / 0 / 0.0232,0 / 0 / 0
UUUCCGUCUG,0.222,0.191 / 0.251 / 0.111,0 / 0 / 0,0 / 0 / 0
UUUCCGUGAG,0.196,0.139 / 0.0539 / 0.203,0 / 0 / 0.116,0 / 0 / 0
UUUCCGUGCG,0.157,0.174 / 0.0539 / 0.166,0 / 0 / 0.0232,0 / 0 / 0
UUUCCGUGGG,0.209,0.122 / 0.126 / 0.0922,0.0276 / 0 / 0.116,0 / 0 / 0
UUUCCGUGUG,0.288,0.122 / 0.126 / 0.0738,0 / 0 / 0.0232,0 / 0 / 0
UUUCCGUUAG,0.379,0.191 / 0.0898 / 0.0738,0 / 0 / 0.0232,0 / 0 / 0.0205
UUUCCGUUCG,0.209,0.0695 / 0.162 / 0,0 / 0 / 0.0696,0 / 0 / 0
UUUCCGUUGG,0.248,0.0695 / 0.0898 / 0.0738,0 / 0 / 0,0 / 0 / 0
UUUCCGUUUG,0.510,0.174 / 0.180 / 0.184,0 / 0 / 0.0232,0 / 0 / 0.0205
UUUCCUACUA,0.0131,0 / 0 / 0,0 / 0 / 0,0 / 0 / 0
UUUCGGCUAG,0.0131,0 / 0 / 0,0 / 0 / 0,0 / 0 / 0
UUUGAGGAGG,0.0131,0 / 0 / 0,0 / 0 / 0,0 / 0 / 0
UUUGCAGAGG,0.0131,0 / 0 / 0,0 / 0 / 0,0 / 0 / 0

The authors trace changes outside the varied positions to PCR and sequencing errors or to mutation in the plant; presence does not show that a variant is infectious alone. Samples held 36,220 to 57,551 reads, so the smallest values rest on one or two reads. For reference, wild type rose from 20.7 per thousand in the pool to 195, 198, 203 (inoculated region), 629, 591, 734 (leaf margin) and 942, 870, 868 (systemic leaves).